Structures can show the parent of a compound that is named as a salt.
Experiment: Complexation of antimicrobials by C10LE (1H-NMR)
Type: physicochemical
Conditions: 1H-NMR in CDCl3 (identical in CD2Cl2), at least triplicate
For `CN(C)[C@@H]1C(O)=C(C(N)=O)C(=O)[C@@]2(O)C(O)=C3C(=O)c4c(O)ccc(Cl)c4[C@@](C)(O)[C@H]3C[C@@H]12` [Chlortetracycline•HCl], the “Complexation ratio with C10LE” value was “No complexation observed”.
In the case of `C[C@H]1c2cccc(O)c2C(=O)C2=C(O)[C@]3(O)C(=O)C(C(N)=O)=C(O)[C@@H](N(C)C)[C@@H]3[C@@H](O)[C@@H]21` [Doxycycline•HCl], the “Complexation ratio with C10LE” value is reported as 1.02 ± 0.04.
With `CN(C)c1ccc(O)c2c1C[C@H]1C[C@H]3[C@H](N(C)C)C(O)=C(C(N)=O)C(=O)[C@@]3(O)C(O)=C1C2=O` [Minocycline•HCl] the “Complexation ratio with C10LE” value was 1.06 ± 0.05.
For `CN(C)[C@@H]1C(O)=C(C(N)=O)C(=O)[C@@]2(O)C(O)=C3C(=O)c4c(O)cccc4[C@@](C)(O)[C@H]3[C@H](O)[C@@H]12` [Oxycycline•HCl], the “Complexation ratio with C10LE” value was 0.997 ± 0.01.

Experiment: Complexation of antimicrobials by C12LE (NMR extraction)
Type: physicochemical
Conditions: CHCl3/CDCl3, (drug:C12LE), average of at least three experiments
In the case of `CC1(C)S[C@@H]2[C@H](NC(=O)[C@H](N)c3ccccc3)C(=O)N2[C@H]1C(=O)O` [Ampicillin, ampicillin], the “Complexation ratio with C12LE” value is reported as 5.1.
In the case of `CO/N=C(\C(=O)N[C@@H]1C(=O)N2C(C(=O)[O-])=C(C[N+]3(C)CCCC3)CS[C@H]12)c1csc(N)n1` [Cefepime, cefepime], the “Complexation ratio with C12LE” value is reported as “no complexation”.
For `CN(C)[C@@H]1C(O)=C(C(N)=O)C(=O)[C@@]2(O)C(O)=C3C(=O)c4c(O)ccc(Cl)c4[C@@](C)(O)[C@H]3C[C@@H]12` [Chlortetracycline•HCl], the “Complexation ratio with C12LE” value was “failed to complex”.
For `NC[C@H]1O[C@H](O[C@H]2[C@H](O)[C@@H](O[C@H]3O[C@H](CO)[C@@H](O)[C@H](N)[C@H]3O)[C@H](N)C[C@@H]2N)[C@H](O)[C@@H](O)[C@@H]1O` [Kanamycin, kanamycin], the “Complexation ratio with C12LE” value was “no complexation”.
With `CC1(C)S[C@@H]2[C@H](NC(=O)Cc3ccccc3)C(=O)N2[C@H]1C(=O)O` [Penicillin G, penicillin G] the “Complexation ratio with C12LE” value was 7.1.

— publication PMC10603992, “Antimicrobial and Adjuvant Potencies of Di-n-alkyl Substituted Diazalariat Ethers” (Antibiotics, 2023)
